Data taken from ChEMBL document CHEMBL1275581, “Detection of the pandemic O25-ST131 human virulent Escherichia coli CTX-M-15-producing clone harboring the qnrB2 and aac(6')-Ib-cr genes in a dog” (2009).

Test system: Escherichia coli
Details: J53

GENTAMICIN
MIC: 0.5 µg/mL
